HIV-1 5' UTR: effect of mutations on RNA dimer formation

The 5' region of HIV-1 NL4-3 RNA (positions 1-437):
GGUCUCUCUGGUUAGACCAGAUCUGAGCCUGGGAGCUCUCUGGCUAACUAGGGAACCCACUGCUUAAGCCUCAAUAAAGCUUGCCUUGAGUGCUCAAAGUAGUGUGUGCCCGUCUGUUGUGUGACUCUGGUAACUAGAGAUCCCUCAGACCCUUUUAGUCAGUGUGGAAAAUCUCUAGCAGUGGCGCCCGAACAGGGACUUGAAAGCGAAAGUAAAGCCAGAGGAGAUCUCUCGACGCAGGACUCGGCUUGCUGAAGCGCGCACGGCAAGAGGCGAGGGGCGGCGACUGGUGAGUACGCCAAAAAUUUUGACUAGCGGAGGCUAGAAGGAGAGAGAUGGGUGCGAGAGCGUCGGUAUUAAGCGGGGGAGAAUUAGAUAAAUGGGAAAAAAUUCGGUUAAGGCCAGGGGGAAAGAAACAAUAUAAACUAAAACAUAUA

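Randomly mutated transcripts starting with one, two or three G (1G, 2G, 3G), capped or uncapped, were folded for 30 min at 37 °C. High salt was 300 mM KCl and 5 mM MgCl2, low salt 40 mM KCl and 0.1 mM MgCl2; monomer and dimer were parted on a native gel. Kdimer compares mutation frequencies in monomer and dimer, corrected for sequencing errors.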

Scale: median log2 Kdimer over the changes at a position; positive = changes inhibit dimerization, negative = changes enhance it. One numbering serves 1G, 2G and 3G. A position is written with its base.

For G83 (domain PolyA) the result was 3G capped high-salt -0.11; 1G capped high-salt -0.26; 1G uncapped high-salt -0.11; 2G uncapped high-salt -0.14.
For C84 (domain PolyA) the result was 3G capped high-salt -0.47; 1G capped high-salt -0.44; 1G uncapped high-salt -0.14; 2G uncapped high-salt -0.20.
For C85 (domain PolyA) the result was 3G capped high-salt -0.66; 1G capped high-salt -0.54; 1G uncapped high-salt -0.30; 2G uncapped high-salt -0.16.
For U86 (domain PolyA) the result was 3G capped high-salt -0.09; 1G capped high-salt 0.10; 1G uncapped high-salt 0.16; 2G uncapped high-salt 0.24.
For U87 (domain PolyA) the result was 3G capped high-salt -0.13; 1G capped high-salt 0.16; 1G uncapped high-salt 0.18; 2G uncapped high-salt 0.17.
For G88 (domain PolyA) the result was 3G capped high-salt -0.01; 1G capped high-salt 0.28; 1G uncapped high-salt 0.10; 2G uncapped high-salt 0.17.
For A89 (domain PolyA) the result was 3G capped high-salt 0.01; 1G capped high-salt 0.43; 1G uncapped high-salt 0.28; 2G uncapped high-salt 0.13.
For G90 (domain PolyA) the result was 3G capped high-salt -0.26; 1G capped high-salt 0.12; 1G uncapped high-salt 0.12; 2G uncapped high-salt 0.04.
For U91 (domain PolyA) the result was 3G capped high-salt -0.21; 1G capped high-salt 0.08; 1G uncapped high-salt 0.14; 2G uncapped high-salt -0.06.
For G92 (domain PolyA) the result was 3G capped high-salt 0.46; 1G capped high-salt 0.79; 1G uncapped high-salt 0.49; 2G uncapped high-salt 0.40.
For C93 (domain PolyA) the result was 3G capped high-salt -0.05; 1G capped high-salt 0.27; 1G uncapped high-salt 0.30; 2G uncapped high-salt 0.24.
For U94 (domain PolyA) the result was 3G capped high-salt -0.16; 1G capped high-salt 0.05; 1G uncapped high-salt 0.10; 2G uncapped high-salt 0.09.
For C95 (domain PolyA) the result was 3G capped high-salt -0.07; 1G capped high-salt 0.07; 1G uncapped high-salt -0.02; 2G uncapped high-salt -0.03.
For A96 (domain PolyA) the result was 3G capped high-salt 0.00; 1G capped high-salt -0.08; 1G uncapped high-salt 0.07; 2G uncapped high-salt 0.09.
For A97 (domain PolyA) the result was 3G capped high-salt 0.02; 1G capped high-salt 0.20; 1G uncapped high-salt 0.22; 2G uncapped high-salt 0.13.
For A98 (domain PolyA) the result was 3G capped high-salt -0.18; 1G capped high-salt 0.16; 1G uncapped high-salt 0.08; 2G uncapped high-salt -0.04.
For G99 (domain PolyA) the result was 3G capped high-salt -0.30; 1G capped high-salt 0.18; 1G uncapped high-salt 0.17; 2G uncapped high-salt 0.02.
For U100 (domain PolyA) the result was 3G capped high-salt 0.06; 1G capped high-salt 0.16; 1G uncapped high-salt 0.08; 2G uncapped high-salt 0.11.
For A101 (domain PolyA) the result was 3G capped high-salt 0.57; 1G capped high-salt 0.74; 1G uncapped high-salt 0.73; 2G uncapped high-salt 0.57.
For G102 (domain PolyA) the result was 3G capped high-salt -0.49; 1G capped high-salt -0.11; 1G uncapped high-salt 0.29; 2G uncapped high-salt 0.14.
For U103 (domain PolyA) the result was 3G capped high-salt -0.29; 1G capped high-salt 0.14; 1G uncapped high-salt 0.12; 2G uncapped high-salt 0.26.
For G104 (domain PolyA) the result was 3G capped high-salt -0.22; 1G capped high-salt 0.12; 1G uncapped high-salt 0.25; 2G uncapped high-salt 0.01.
For U105 (domain U5) the result was 3G capped high-salt -0.28; 1G capped high-salt -0.22; 1G uncapped high-salt 0.09; 2G uncapped high-salt -0.01.
For G106 (domain U5) the result was 3G capped high-salt -0.41; 1G capped high-salt -0.06; 1G uncapped high-salt 0.07; 2G uncapped high-salt -0.09.
For U107 (domain U5) the result was 3G capped high-salt 0.32; 1G capped high-salt 0.27; 1G uncapped high-salt 0.19; 2G uncapped high-salt -0.04.
For G108 (domain U5) the result was 3G capped high-salt -0.31; 1G capped high-salt -0.14; 1G uncapped high-salt 0.07; 2G uncapped high-salt -0.06.
For C109 (domain U5) the result was 3G capped high-salt 0.10; 1G capped high-salt -0.13; 1G uncapped high-salt -0.16; 2G uncapped high-salt -0.19.
For C110 (domain U5) the result was 3G capped high-salt 0.02; 1G capped high-salt -0.20; 1G uncapped high-salt 0.16; 2G uncapped high-salt 0.24.
For C111 (domain U5) the result was 3G capped high-salt -0.29; 1G capped high-salt -0.06; 1G uncapped high-salt -0.12; 2G uncapped high-salt -0.15.
For G112 (domain U5) the result was 3G capped high-salt 0.09; 1G capped high-salt -0.04; 1G uncapped high-salt 0.04; 2G uncapped high-salt 0.00.
For U113 the result was 3G capped high-salt -0.33; 1G capped high-salt -0.20; 1G uncapped high-salt -0.04; 2G uncapped high-salt -0.11.

From the data files of Ye et al. 2022, doi:10.1038/s41594-022-00746-2.